## HIV-1 5' UTR: effect of mutations on RNA dimer formation

Sequence of the HIV-1 NL4-3 5' RNA, positions 1 to 437, as numbered in the source:
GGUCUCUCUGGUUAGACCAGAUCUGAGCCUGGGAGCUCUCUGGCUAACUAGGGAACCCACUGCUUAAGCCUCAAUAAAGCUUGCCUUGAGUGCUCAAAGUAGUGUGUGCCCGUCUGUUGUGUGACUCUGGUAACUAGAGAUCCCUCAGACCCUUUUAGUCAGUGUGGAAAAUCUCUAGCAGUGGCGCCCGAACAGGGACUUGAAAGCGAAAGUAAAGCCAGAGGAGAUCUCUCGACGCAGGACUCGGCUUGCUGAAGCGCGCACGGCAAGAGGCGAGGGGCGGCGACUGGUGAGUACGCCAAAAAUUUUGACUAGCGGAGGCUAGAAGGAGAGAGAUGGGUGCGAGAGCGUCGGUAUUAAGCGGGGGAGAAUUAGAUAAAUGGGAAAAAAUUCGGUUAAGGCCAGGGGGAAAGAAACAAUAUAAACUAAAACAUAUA

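Randomly mutated transcripts starting with one, two or three G (1G, 2G, 3G), capped or uncapped, were folded for 30 min at 37 °C. High salt was 300 mM KCl and 5 mM MgCl2, low salt 40 mM KCl and 0.1 mM MgCl2; monomer and dimer were parted on a native gel. Mutation frequencies in the two bands give Kdimer.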

Values are log2 Kdimer, the median over the changes at each position: higher means that changes there hinder dimer formation, below 0 that they favour it.
One numbering serves 1G, 2G and 3G.
A position is written with its base where known.
Bases beyond 437 are not listed in the source.

With position 482 the assay gave 1G uncapped high-salt 0.11; 2G capped high-salt 0.00; 3G uncapped high-salt -0.08.
With position 483 the assay gave 1G uncapped high-salt -0.04; 2G capped high-salt 0.03; 3G uncapped high-salt -0.15.
With position 484 the assay gave 1G uncapped high-salt 0.08; 2G capped high-salt -0.07; 3G uncapped high-salt 0.03.
With position 485 the assay gave 1G uncapped high-salt 0.08; 2G capped high-salt -0.05; 3G uncapped high-salt 0.08.
With position 486 the assay gave 1G uncapped high-salt -0.02; 2G capped high-salt 0.01; 3G uncapped high-salt 0.01.
With position 487 the assay gave 1G uncapped high-salt 0.04; 2G capped high-salt 0.03; 3G uncapped high-salt -0.05.
With position 488 the assay gave 1G uncapped high-salt 0.10; 2G capped high-salt -0.01; 3G uncapped high-salt 0.04.
With position 489 the assay gave 1G uncapped high-salt 0.18; 2G capped high-salt 0.00; 3G uncapped high-salt 0.03.
With position 490 the assay gave 1G uncapped high-salt 0.07; 2G capped high-salt 0.07; 3G uncapped high-salt -0.03.
With position 491 the assay gave 1G uncapped high-salt -0.02; 2G capped high-salt 0.09; 3G uncapped high-salt 0.14.
With position 492 the assay gave 1G uncapped high-salt 0.05; 2G capped high-salt 0.08; 3G uncapped high-salt 0.08.
With position 493 the assay gave 1G uncapped high-salt 0.08; 2G capped high-salt 0.15; 3G uncapped high-salt 0.18.
With position 494 the assay gave 1G uncapped high-salt 0.04; 2G capped high-salt 0.03; 3G uncapped high-salt 0.03.
With position 495 the assay gave 1G uncapped high-salt -0.07; 2G capped high-salt 0.07; 3G uncapped high-salt -0.02.
With position 496 the assay gave 1G uncapped high-salt 0.03; 2G capped high-salt -0.09; 3G uncapped high-salt 0.04.
With position 497 the assay gave 1G uncapped high-salt 0.03; 2G capped high-salt 0.05; 3G uncapped high-salt 0.02.
With position 498 the assay gave 1G uncapped high-salt 0.11; 2G capped high-salt 0.08; 3G uncapped high-salt 0.07.
With position 499 the assay gave 1G uncapped high-salt 0.14; 2G capped high-salt -0.01; 3G uncapped high-salt 0.01.
With position 500 the assay gave 1G uncapped high-salt -0.03; 2G capped high-salt -0.11; 3G uncapped high-salt -0.07.
With position 501 the assay gave 1G uncapped high-salt -0.04; 2G capped high-salt 0.18; 3G uncapped high-salt 0.11.
With position 502 the assay gave 1G uncapped high-salt -0.02; 2G capped high-salt -0.02; 3G uncapped high-salt 0.14.
With position 503 the assay gave 1G uncapped high-salt -0.02; 2G capped high-salt 0.04; 3G uncapped high-salt -0.02.
With position 504 the assay gave 1G uncapped high-salt 0.02; 2G capped high-salt 0.05; 3G uncapped high-salt -0.03.
With position 505 the assay gave 1G uncapped high-salt 0.05; 2G capped high-salt -0.07; 3G uncapped high-salt -0.01.
With position 506 the assay gave 1G uncapped high-salt 0.05; 2G capped high-salt -0.05; 3G uncapped high-salt -0.04.
With position 507 the assay gave 1G uncapped high-salt 0.08; 2G capped high-salt 0.09; 3G uncapped high-salt 0.04.
With position 508 the assay gave 1G uncapped high-salt 0.11; 2G capped high-salt 0.09; 3G uncapped high-salt 0.09.
With position 509 the assay gave 1G uncapped high-salt 0.15; 2G capped high-salt -0.01; 3G uncapped high-salt 0.07.
With position 510 the assay gave 1G uncapped high-salt 0.06; 2G capped high-salt 0.01; 3G uncapped high-salt -0.01.
With position 511 the assay gave 1G uncapped high-salt 0.07; 2G capped high-salt 0.03; 3G uncapped high-salt 0.04.
With position 512 the assay gave 1G uncapped high-salt 0.10; 2G capped high-salt -0.13; 3G uncapped high-salt 0.09.
With position 513 the assay gave 1G uncapped high-salt 0.03; 2G capped high-salt -0.01; 3G uncapped high-salt -0.02.
With position 514 the assay gave 1G uncapped high-salt -0.01; 2G capped high-salt 0.01; 3G uncapped high-salt -0.05.
With position 515 the assay gave 1G uncapped high-salt 0.06; 2G capped high-salt -0.05; 3G uncapped high-salt -0.02.

2 of these entries, quoted again:

position 489: 1G uncapped high-salt 0.18; 2G capped high-salt 0.00; 3G uncapped high-salt 0.03.
position 482: 1G uncapped high-salt 0.11; 2G capped high-salt 0.00; 3G uncapped high-salt -0.08.

Source: Ye et al. 2022 (doi:10.1038/s41594-022-00746-2), supplementary data.